Compound potency records, mixed from different reports. Data source: NIAID ChemDB in PubChem.

Common to all: growth or infection tests; agent: Mycobacterium tuberculosis

Rows are shuffled and stem from different studies.

SMILES,dose,conditions,endpoint,cells,method,changes,strain,result
Cc1cc(=O)n2c3c(c4c(cc13)c(CN(C)C)cc(=O)n4C)OC2.Cl,-,-,MIC,-,BACTEC,-,H37Rv,≥12.5 µg/mL
C[C@H]1COc2c(N3CCN(C)CC3)c(F)cc3c(=O)c(C(=O)O)cn1c23,-,-,MIC50,-,-,-,22 strains (rifampin- isoniazid-resistant),3.13 µg/mL
C/C(=N\OCCc1nnc(N2CCOCC2)o1)c1ccccc1,12.5 µg/mL,-,inhibition,-,-,-,-,7–56%
CC[C@H]1OC(=O)[C@H](C)[C@@H](O[C@H]2C[C@@](C)(OC)[C@@H](O)[C@H](C)O2)[C@H](C)[C@@H](O[C@@H]2O[C@H](C)C[C@H](N(C)C)[C@H]2O)[C@](C)(OC)C[C@@H](C)C(=O)[C@H](C)[C@@H](O)[C@]1(C)O,-,-,MBC,-,-,-,ATCC 35827,>8 µg/mL
CCOC(=O)Nc1cc(N(C)C(c2ccccc2)c2ccccc2)c([N+](=O)[O-])c(N)n1,12.5 µg/mL,-,inhibition,-,-,-,H37Rv,0%
C/C(=N\OCc1nnc(N)o1)c1ccccc1,12.5 µg/mL,-,inhibition,-,-,-,-,7–56%
NNC(=O)c1ccncc1,-,-,MIC,-,-,-,Isolate 2237,0.125 µg/mL
CC(C)N=c1cc2n(-c3ccc(Cl)cc3)c3ccccc3nc-2cc1Nc1ccc(Cl)cc1,-,-,MIC,-,-,-,H37Rv,0.1 µg/mL
CCN(CC)CCN(C)Cc1coc(-c2ccccc2)c1Cl.Cl.Cl,-,-,MIC,-,BACTEC,-,H37Rv,1.56 µg/mL
O=C(N/N=C/c1cccc(C(F)(F)F)c1)c1ccncc1,-,-,MIC,-,-,-,H37Rv (kanamycin-resistant),1 µg/mL
CO[C@H]1/C=C/O[C@@]2(C)Oc3c(C)c(O)c4c(=O)c(c5oc6cc(N7CCN(CC(C)C)CC7)cc(=O)c6nc5c4c3=C2O)NC(=O)/C(C)=C\C=C\[C@H](C)[C@H](O)[C@@H](C)[C@@H](O)[C@@H](C)[C@H](OC(C)=O)[C@@H]1C,1 µg/mL,inside macrophages,inhibition,-,-,-,H37Rv,97.4%
CO[C@H]1/C=C/O[C@@]2(C)Oc3c(C)c(O)c4c(O)c(c(/C=N/N5CCN(C)CC5)c(O)c4c3C2=O)NC(=O)/C(C)=C\C=C\[C@H](C)[C@H](O)[C@@H](C)[C@@H](O)[C@@H](C)[C@H](OC(C)=O)[C@@H]1C,-,-,MIC,-,-,-,Isolate 12,<0.03 µg/mL
O=C(N/N=C/c1ccc([N+](=O)[O-])s1)c1ccc(Cl)cc1,-,-,EC50,-,-,-,H37Rv,<6.25 µg/mL
O=C1CSc2nc3ccc(Br)cc3c(=O)n21,6.25 µg/mL,-,inhibition,-,-,-,H37Rv,-14%
O=C(N/N=C/c1ccc([N+](=O)[O-])s1)c1ccc(F)cc1,6.25 µg/mL,-,inhibition,-,-,-,H37Rv,99%
CCOC(=O)Nc1cc(NC(c2ccc(Cl)cc2)c2ccc(Cl)cc2)c([N+](=O)[O-])c(N)n1,12.5 µg/mL,-,inhibition,-,-,-,H37Rv,46%
C/C(=N\OCc1nnc(NCc2ccccc2)o1)c1ccccc1,12.5 µg/mL,-,inhibition,-,-,-,-,7–56%
O=C(NNCc1ccccc1)c1ccncc1,-,-,MIC,-,-,-,Ethambutol-resistant,0.2 µg/mL
CO[C@H]1/C=C/O[C@@]2(C)Oc3c(C)c(O)c4c(O)c(c(/C=N/N5CCN(C)CC5)c(O)c4c3C2=O)NC(=O)/C(C)=C\C=C\[C@H](C)[C@H](O)[C@@H](C)[C@@H](O)[C@@H](C)[C@H](OC(C)=O)[C@@H]1C,-,-,MIC,-,broth dilution,-,Clinical isolate 30034,≤1 µM
CSC(=S)NN=C1CCCCC1,-,-,MIC bound,-,BACTEC,-,H37Rv,≤128 µg/mL
CC(NNC(=O)c1ccncc1)c1cccc(C(F)(F)F)c1,-,-,MIC,-,-,-,Thiacetazone-resistant,>50 µg/mL
COc1cc2c(cc1C1COc3cc4occc4cc3C1=O)OCO2,12.5 µg/mL,-,inhibition,-,BACTEC,-,H37Rv,78%
NC[C@H]1O[C@H](O[C@H]2[C@H](O)[C@@H](O[C@H]3O[C@H](CO)[C@@H](O)[C@H](N)[C@H]3O)[C@H](N)C[C@@H]2N)[C@H](O)[C@@H](O)[C@@H]1O,-,-,MIC,-,-,-,Isolate 9,32 µg/mL
COc1ccc2oc(=O)n(-c3ccccc3)c(=O)c2c1,-,-,MIC,-,-,-,CNCTC MY331/88,125 µM
CCOC(=O)Nc1cc2c(c(N)n1)N=C(c1ccc3ccccc3c1)CS2,-,-,EC50,-,-,-,H37Rv,<12.5 µg/mL
O=C(N/N=C/c1cccs1)c1ccc([N+](=O)[O-])cc1,-,-,MIC,-,-,-,H37Rv,>6.25 µg/mL
O=C(N/N=C/c1cccc(F)c1)c1ccncc1,-,-,MBC,-,-,-,H37Rv,0.8 µg/mL
CN1CCC(CNC(=O)CCCCCCCCC(=O)NCC2(c3ccccc3)CCN(C)CC2)(c2ccccc2)CC1,12.5 µg/mL,-,inhibition,-,BACTEC,-,H37Rv,0%
NNC(=O)c1ccncc1,-,-,MIC,-,broth dilution,Isoniazid-resistant,Clinical isolate 7791,≤10 µM
N[C@@H]1CN(c2c(F)cc3c(=O)c(C(=O)O)cn([C@@H]4C[C@@H]4F)c3c2Cl)CC12CC2,-,-,MIC50,-,-,-,18 strains (levofloxacin-resistant),0.78 µg/mL
CO/C(C)=C1/NC(=O)[C@H]([C@@H](C)O)NC(=O)c2csc(n2)-c2cc(OC)c(-c3nc(C(=O)NCCCN4CCOCC4)cs3)nc2-c2csc(n2)[C@@H]2COC(=O)c3c4c5c(cccc5n3O)COC(=O)[C@@H](O[C@H]3C[C@](C)(O)[C@H](N(C)C)[C@H](C)O3)[C@@H](OC4)[C@H](NC(=O)c3csc1n3)c1nc(cs1)C(=O)N2,-,-,MIC,-,broth dilution,-,Clinical Isolate 913,≤1 µM
CC1COc2c(N3CCN(C)CC3)c(F)cc3c(=O)c(C(=O)O)cn1c23,-,-,MIC90,-,-,-,MDR,8 µg/mL
COc1c(N2CCNC(C)C2)c(F)cc2c(=O)c(C(=O)O)cn(C3CC3)c12,-,-,MIC,-,-,-,Strain 32,0.125 µg/mL
CC(=O)O[C@H]1C(=O)[C@@]2(C)[C@H]([C@H](OC(=O)c3ccccc3)[C@@]3(O)C[C@H](O)C(C)=C1C3(C)C)[C@]1(OC(C)=O)CO[C@@H]1C[C@@H]2O,12.5 µg/mL,-,inhibition,-,BACTEC,-,H37Rv,-7%
O=C(NNCc1cccc(C(F)(F)F)c1)c1ccncc1,-,-,MIC,-,-,-,Rifampicin-resistant,0.39 µg/mL
CCOC(=O)Nc1cc2[nH]c(-c3ccccc3)nc2c(Cl)n1,-,-,EC50,-,-,-,H37Rv,>12.5 µg/mL
CO/C(C)=C1/NC(=O)[C@H]([C@@H](C)O)NC(=O)c2csc(n2)-c2cc(O)c(-c3nc(C(=O)NCCCN4CCOCC4)cs3)nc2-c2csc(n2)[C@@H]2COC(=O)c3c4c5c(cccc5n3O)COC(=O)[C@@H](O[C@H]3C[C@](C)(O)[C@H](N(C)C)[C@H](C)O3)[C@@H](OC4)[C@H](NC(=O)c3csc1n3)c1nc(cs1)C(=O)N2,-,-,MIC,-,broth dilution,Multidrug-resistant,Clinical isolate 565,2.5–25 µM
CC[C@@H](CO)NCCN[C@@H](CC)CO,-,-,MIC,-,-,-,90-0216 (drug-susceptible),1 µg/mL
CC(C1=C(O)c2ccccc2C(=O)C1=O)C1=C(O)c2ccccc2C(=O)C1=O,12.8 µg/mL,-,inhibition,-,BACTEC,-,H37Rv,21%
C[C@H]1COc2c(N3CCN(C)CC3)c(F)cc3c(=O)c(C(=O)O)cn1c23,-,-,MIC,-,-,-,Isolate 11,1 µg/mL
NC1CCN(c2c(F)cc3c(=O)c(C(=O)O)cn(C4CC4)c3c2Cl)C1,-,-,MIC,-,-,-,ATCC 35827,0.125 µg/mL
NNC(=O)c1ccncc1,-,-,MIC,-,-,-,Strain 328,8 µg/mL
N#Cc1ccc(-n2c(=O)oc3ccc(F)cc3c2=O)cc1,-,-,MIC,-,-,-,CNCTC MY331/88,16 µM
C=C(NC(=O)c1csc(-c2nc3c(cc2O)-c2nc(cs2)C(=O)N[C@@H]([C@@H](C)O)C(=O)N/C(=C(\C)OC)c2nc(cs2)C(=O)N[C@@H]2c4nc(cs4)C(=O)N[C@@H](COC(=O)c4c5c6c(cccc6n4O)COC(=O)[C@@H](O[C@H]4C[C@](C)(O)[C@H](N(C)C)[C@H](C)O4)[C@H]2OC5)c2nc-3cs2)n1)C(N)=O,-,-,MIC,-,broth dilution,Rifampicin- and isoniazid-resistant,Clinical isolate 15552,≤2.5 µM
COc1ccc2oc(=O)n(-c3cccc(F)c3)c(=O)c2c1,-,-,MIC,-,-,-,CNCTC MY331/88,125 µM
Cc1nn(C(=O)c2ccc(Cl)cc2)c2c1C(c1ccco1)SC(N)=N2,12.5 µg/mL,-,inhibition,-,BACTEC,-,H37Rv,1%
CCOC(=O)Nc1cc(N)c2c(n1)OCC(c1ccc(OC)c(OC)c1)=N2,12.5 µg/mL,-,inhibition,-,-,-,H37Rv,0%
C/C(=N\OCc1nnc(/C=C/c2ccccc2)o1)c1ccccc1,12.5 µg/mL,-,inhibition,-,-,-,-,7–56%
CCOC(=O)c1nnc2sc(-c3ccccc3)nn12,-,-,MIC,-,BACTEC,-,H37Rv,≥128 µg/mL
C/C(=N\NC(=O)c1ccncc1)c1ccc(F)cc1,-,-,MIC,-,-,-,Thiacetazone-resistant,>1.6 µg/mL
CC1CN(S(=O)(=O)c2ccccc2)C(C)CN1S(=O)(=O)c1ccccc1,-,-,MIC,-,BACTEC,-,H37Rv,≥12.5 µg/mL
NC(=O)c1cnccn1,-,-,MIC,-,-,-,W4693 (niacin-negative),>2048 µg/mL
COc1ccc(=NC(C)=O)c2c(O)c3c(=O)c4[nH]c5c(OC)ccc(=NC(C)=O)c5c(O)c4c(=O)c3[nH]c12,12.5 µg/mL,-,inhibition,-,BACTEC,-,H37Rv,12%
O=c1oc2cc(Cl)ccc2c(=O)n1-c1cccc([N+](=O)[O-])c1,-,-,MIC,-,-,-,CNCTC MY331/88,8 µM
CC(C(=O)c1ccccc1)c1nc2nnc(N)n2[nH]c1=O,-,-,MIC bound,-,BACTEC,-,H37Rv,>12.5 µg/mL
C/C(=N\NC(=O)c1ccncc1)c1ccccc1F,-,-,MIC,-,-,-,Erdman,0.39 µg/mL
NNC(=O)c1ccncc1,-,-,MIC,-,-,-,90-0241 (drug-susceptible),0.04 µg/mL
CC[C@H]1OC(=O)[C@H](C)[C@@H](O[C@H]2C[C@@](C)(OC)[C@@H](O)[C@H](C)O2)[C@H](C)[C@@H](O[C@@H]2O[C@H](C)C[C@H](N(C)C)[C@H]2O)[C@](C)(OC)C[C@@H](C)C(=O)[C@H](C)[C@@H](O)[C@]1(C)O,-,-,MIC50,-,-,-,18 strains (levofloxacin-resistant),6.25 µg/mL
COc1ccc2oc(=O)n(-c3ccc(C#N)cc3)c(=O)c2c1,-,-,MIC,-,-,-,CNCTC MY331/88,62.5 µM
C[C@H]1C[C@H](N)CN1c1cc2c(cc1F)c(=O)c(C(=O)O)cn2-c1ccc(F)cc1F,-,-,MBC,-,-,-,H37Rv,>8 µg/mL
O=C(N/N=C/c1ccccc1F)c1ccc(F)cc1,-,-,EC50,-,-,-,H37Rv,>6.25 µg/mL
Cc1ccc2c(=O)n(-c3ccc(Cl)cc3)c(=O)oc2c1,-,-,MIC,-,-,-,CNCTC MY331/88,31 µM
COc1cccc2c1C(=O)c1c(O)c3c(c(O)c1C2=O)C[C@@](O)(/C(C)=N/NC(N)=O)CC3OC1CC(N)C(O)C(C)O1.Cl,-,-,MIC,-,-,-,PZA-R,12.5 µg/mL
C/C(=N\NC(=O)c1ccncc1)c1ccccc1,-,-,MIC,-,-,-,Ethionamide-resistant,3.2 µg/mL
COc1cc(OC)c2c(c1)OC1OC(=O)CC21,-,-,MIC bound,-,BACTEC,-,H37Rv,>12.5 µg/mL
COc1ccc2c(=O)n(-c3ccc(F)cc3)c(=O)oc2c1,-,-,MIC,-,-,-,CNCTC MY331/88,16 µM
C[C@@H]1CN(c2c(F)c(N)c3c(=O)c(C(=O)O)cn(C4CC4)c3c2F)C[C@H](C)N1,-,-,MIC,-,-,-,90-0201 (drug-susceptible),0.1 µg/mL
COc1ccccc1C(=O)N(C)c1ccc(Cl)c(C(=O)OC(C)C)c1,12.5 µg/mL,-,inhibition,-,BACTEC,-,H37Rv,0%
O=c1oc2ccc(F)cc2c(=O)n1-c1ccc(Cl)c(Cl)c1,-,-,MIC,-,-,-,CNCTC MY331/88,8 µM
C/C(=N\OCc1nnc(-c2ccccc2)o1)c1ccccc1,12.5 µg/mL,-,inhibition,-,-,-,-,7–56%
CC1COc2c(N3CCN(C)CC3)c(F)cc3c(=O)c(C(=O)O)cn1c23,-,-,MIC,-,-,-,90-0241 (drug-susceptible),0.75 µg/mL
C[C@@H]1CN(c2c(F)c(N)c3c(=O)c(C(=O)O)cn(C4CC4)c3c2F)C[C@H](C)N1,-,-,MIC90,-,-,-,DRUG-SUS,0.06 µg/mL
CCCCN(CCCC)/N=C/C1=C2NC(=O)/C(C)=C\C=C/C(OC)C(OC(N)=O)/C(C)=C/C(C)C(O)C(OC)CC(C)CC(=C(OC)C1=O)C2=O,-,-,MIC,VERO,BACTEC,-,H37Rv,6.25 µg/mL
O=C(NNCc1ccccc1F)c1ccncc1,-,-,MIC,-,-,-,Isoniazid-resistant,>6.4 µg/mL
COc1ccc2c(c1)[n+]([O-])c(C(N)=O)c(N)[n+]2[O-],-,-,MIC,-,-,-,RMP-R,3.1 µg/mL
O=c1oc2ccc(F)cc2c(=O)n1-c1ccc(C(F)(F)F)cc1,-,-,MIC,-,-,-,CNCTC MY331/88,2 µM
c1ccc2c(c1)nnn1c3ncccc3nc21,-,-,MIC,VERO,resazurin,-,H37Rv,6.25 µg/mL
CC[C@H]1OC(=O)[C@H](C)[C@@H](O[C@H]2C[C@@](C)(OC)[C@@H](O)[C@H](C)O2)[C@H](C)[C@@H](O[C@@H]2O[C@H](C)C[C@H](N(C)C)[C@H]2O)[C@](C)(OC)C[C@@H](C)C(=O)[C@H](C)[C@@H](O)[C@]1(C)O,-,-,MIC,-,-,-,90-0201 (drug-susceptible),5 µg/mL

MIC bound: limit read from a one-dose screen. ECn is the concentration giving n% inhibition of infection, replication or growth. MIC50, MIC90 and the like: level of inhibition, or share of isolates inhibited. An empty or dashed field is not shown. Inhibition is in % at the dose shown (toxicity tests: loss of growth or viability). Two numbers with a dash give a range or band.